{"source": "paper PMC2362362", "about": "(British Journal of Cancer, 1999)", "target": "T1, CD30 antigen on the Hodgkin-derived cell line L540Cy (Homo sapiens (Human)., UniProt P28908)", "T1 construct": "also called CD30 receptor; intact native CD30; source: endogenous, on L540Cy cells", "test": "flow cytometry on cells"}
{"binder": "recombinant anti-CD30 immunotoxin Ki-4(scFv)-ETA' (other) VH: QVKLQESGTELAKPGAAVKMSCKASGYTFTDYWMHWVKQRPGQGLEWIGYINPNTAYTDYNQKFKDKATLTADKSSSTAYMQLRSLTSEDSAVYYCAKKTTQTTWGFPFWGQGTTVTVSS VL: DIVLTQSPKSMAMSVGERVTLSCKASENVDSFVSWYQQKPGQSPKLLIYGASNRYTGVPDRFAGSGSGRDFTLTISSVQAEDLADYHCGQNYRYPLTFGAGTKLEIK", "values": [{"measurement": "binding result", "result": "binds"}]}
